Experimental data published in ChEMBL document CHEMBL3351919, “Structure-based design of potent and selective Leishmania N-myristoyltransferase inhibitors” (2014).

Assays:
[1] = Cytotoxicity against mouse BMDM after 72 hrs by alamar blue fluorescence assay; conditions: read-out: LD50
[2] = tested on: Leishmania donovani; assay: Antileishmanial activity against Leishmania donovani amastigotes assessed as growth inhibition after 72 hrs by alamar blue fluorescence assay
[3] = Inhibition of Leishmania donovani N-myristoyltransferase using GSNKSKPKDASQRRR-NH2 as substrate by CPM fluorescence assay
[4] = Inhibition of Leishmania major N-myristoyltransferase using GSNKSKPKDASQRRR-NH2 as substrate by CPM fluorescence assay

Row | Structure (SMILES) | CC50 [1] | EC50 [2] | Ki [3] | IC50 [3] | IC50 [4]
1 | CC(=O)Nc1cc([C@H]2CN(C(=O)C[C@H](N)Cc3ccc(Cl)cc3)C[C@@H]2CO)ccc1Cl | > 90 µM | > 50 µM | 0.11 µM |  | 
2 | O=C(Cc1ccc(F)cc1)Nc1cc([C@H]2CN(C(=O)CC(O)Cc3ccc(Cl)cc3)C[C@@H]2CO)ccc1Cl (stereo not given in full) | > 24 µM | 10 µM | 0.059 µM |  | 
3 | N[C@@H](CC(=O)N1C[C@@H](CO)[C@H](c2ccc(Cl)cc2)C1)Cc1ccc(Cl)cc1 | 12 µM | 10 µM | 1.41 µM | 1.7 µM | 
4 | O=C(Cc1ccc(F)cc1)Nc1ccc2[nH]cc(C3CCNCC3)c2c1 | > 45 µM | > 30 µM |  |  | 0.55 µM
5 | N[C@@H](CC(=O)N1C[C@H](CO)[C@@H](c2ccc(Cl)c(NC(=O)Cc3ccc(F)cc3)c2)C1)Cc1ccc(Cl)cc1 | 12 µM | 10 µM |  |  | 
6 | N[C@@H](CC(=O)N1C[C@H](CO)[C@@H](c2ccc(Cl)cc2)C1)Cc1ccc(Cl)cc1 | 8 µM | 10 µM | 0.017 µM | 0.025 µM | 0.031 µM
